According to patent publication US20100093811A1 (priority 2007, published 2010):
Like-named read-outs stand apart in the source and are kept apart here.

How the values were obtained:
[1] = tested on: acute HIV infection of T-lymphoid cells; assay: Assay for inhibition of HIV replication (spread assay); conditions: inhibition of HIV-1 replication, 10% FBS
Method: • Assay for Inhibition of HIV Replication
Assays for the inhibition of acute HIV infection of T-lymphoid cells were conducted in accordance with Vacca, J. P. et al., Proc. Natl. Acad. Sci. USA 1994, 91: 4096.

wild-type HIV-1 protease = wild-type HIV-1 protease (Human immunodeficiency virus type 1 group M subtype B, UniProt P04585); assay: Assay for inhibition of microbial expressed HIV protease; conditions: read-out: Enzyme Inhibition - IC50, wild-type HIV-1 protease expressed in E. coli, peptide substrate, pH 5.5

Row | SMILES | Spread - IC95 ([1]; tested form: HCl) [pM] | IC50 (wild-type HIV-1 protease; tested form: HCl) [pM] | Spread - IC95 [1] [pM] | IC50 (wild-type HIV-1 protease) [pM]
1 | CN[C@H](C(=O)N[C@@H](C)CCC[C@@H](CO)N(C(C)C)S(=O)(=O)c1ccc(N)cc1)C(c1ccccc1)c1ccccc1 | 31000 | 131 |  | 
2 | CC[C@@H](CCC[C@@H](CO)N(C(C)C)S(=O)(=O)c1ccc([C@H](C)O)cc1)NC(=O)[C@@H](NC(=O)OC)C(c1ccccc1)c1ccccc1 |  |  | 41000 | 133
